Assays:
[1] = target: protective antigen (PA) from B. anthracis, recombinant

B1: human furin (amino acid residues 1-604) (protein)
chain: QKVFTNTWAVRIPGGPAVANSVARKHGFLNLGQIFGDYYHFWHRGVTKRSLSPHRPRHSRLQREPQVQWLEQQVAKRRTKRDVYQEPTDPKFPQQWYLSGVTQRDLNVKAAWAQGYTGHGIVVSILDDGIEKNHPDLAGNYDPGASFDVNDQDPDPQPRYTQMNDNRHGTRCAGEVAAVANNGVCGVGVAYNARIGGVRMLDGEVTDAVEARSLGLNPNHIHIYSASWGPEDDGKTVDGPARLAEEAFFRGVSQGRGGLGSIFVWASGNGGREHDSCNCDGYTNSIYTLSISSATQFGNVPWYSEACSSTLATTYSSGNQNEKQIVTTDLRQKCTESHTGTSASAPLAAGIIALTLEANKNLTWRDMQHLVVQTSKPAHLNANDWATNGVGRKVSHSYGYGLLDAGAMVALAQNWTTVAPQRKCIIDILTEPKDIGKRLEVRKTVTACLGEPNHITRLEHAQARLTLSYNRRGDLAIHLVSPMGTRSTLLAARPHDYSADGFNDWAFMTTHSWDEDPSGEWVLEIENTSEANNYGTLTKFTLVLYGTAPEGLPVPPESSGCKTLTSSQACVVCEEGFS
furin cleavage, products analysed by SDS-PAGE and Coomassie blue staining (F1mutV-PA triple antigen): F1mut-PA and rPA had similar sensitivity to various concentrations of furin | furin cleavage, products analysed by SDS-PAGE and Coomassie blue staining [1]: F1mut-PA and rPA had similar sensitivity to various concentrations of furin

Reference: patent US20180264102
